Compound potency records, mixed from different reports. Data source: NIAID ChemDB in PubChem.

Common to all: growth or infection tests; organism: Hepatitis B virus; endpoint: EC50

Conditions beyond the fields shown may differ between rows. ECn: concentration that inhibits the pathogen or its effect by n%. An empty or dashed field is not shown.

SMILES	cells	mutations	strain	result
COC(=O)c1cc(OC)c2c(OC)cc(N)cc2n1	-	-	-	0.15 µg/mL
Nc1ccn([C@H]2CS[C@@H](CO)O2)c(=O)n1	CEM	-	-	0.5 µM
COc1cc(N)cc2[nH]c(C(C)=O)cc12	-	-	-	0.98 µg/mL
Nc1nc2c(ncn2[C@H]2CO[C@@H](CO)O2)c(=O)[nH]1	AD38	-	Wild	30 µM
CC(C)=CCC[C@H](C)c1ccc(C)cc1O[C@@H]1OC(CO)[C@@H](O)C(O)[C@@H]1O	2.2.15	-	-	>61 µg/mL
Nc1ccn([C@H]2CC[C@H](CO)O2)c(=S)n1	-	-	-	>100 µM
Cc1ccc([C@@H](C)CCCC(C)C(=O)O)c(O)c1	2.2.15	-	-	>61 µg/mL
C=C1[C@@H](n2cnc3c(N)ncnc32)[C@H](F)[C@H](O)[C@H]1CO	Huh7	L180M+M204V+S202G	-	0.67 µM
COC(=O)C1=C(C)NC(c2ncccc2OC)=N[C@H]1c1ccc(F)cc1Cl	HepG2.2.15	-	-	>5 µM
CCOC(=O)[C@H](C)NP(=O)(OC[C@@H]1OC[C@H](n2cnc3c(NC4CC4)nc(N)nc32)O1)Oc1ccccc1	AD38	-	Wild	<10 µM
COC(=O)c1cc2c(OC)cc(C(N)=O)cc2[nH]1	-	-	-	0.14 µg/mL
Cc1cc(NC(=O)c2ccc(F)c(Br)c2)ccc1F	HepG2.2.15	-	-	0.6 µM
Cc1ccc([C@@H](C)CCCC(C)(C)O)c(OC(=O)c2ccncc2)c1	2.2.15	-	-	>61 µg/mL
Cc1cn([C@H]2C[C@@](C)(CO)CO2)c(=O)[nH]c1=O	-	-	-	>100 µM
COC(=O)C1=C(C(OC)OC)NC(c2ccccn2)=NC1c1ccccc1Cl	HepG2.2.15	-	-	>100 µM
C[C@]1(CO)CO[C@@H](n2cnc3c(=O)[nH]c(N)nc32)C1	-	-	-	>100 µM
Nc1ncn([C@H]2CC[C@H](CO)O2)c(=O)n1	-	-	-	>100 µM
Cc1ccc([C@@H](C)CCCC(C)(C)O)c(O)c1	2.2.15	-	-	>61 µg/mL
C[C@]1(CO)CO[C@@H](n2cnc3c(=O)[nH]cnc32)C1	-	-	-	>100 µM
C/C(=C\CC[C@H](C)c1ccc(C)cc1O)CO	2.2.15	-	-	>61 µg/mL
O=c1ccn(C[C@H]2C[C@H]2CO)c(=O)[nH]1	2.2.15	-	-	>10 µM
Nc1nc2c(ncn2C=C2CC2CO)c(=O)[nH]1	2.2.15	-	-	10 µM
Nc1nc2c(ncn2C[C@H]2C[C@H]2CO)c(=O)[nH]1	2.2.15	-	-	>10 µM
Cc1cc(NC(=O)c2c(C(C)C)noc2C)ccc1F	HepG2.2.15	-	-	0.15 µM
CCOC(=O)[C@H](C)NP(=O)(OC[C@@H]1OC[C@H](n2cnc3c(=O)[nH]c(N)nc32)O1)Oc1ccccc1	AD38	-	Wild	0.1 µM
CC(C)=CCC[C@H](C)c1ccc(C)cc1O	2.2.15	-	-	>61 µg/mL
O=c1[nH]c(=O)n([C@H]2O[C@@H](CO)[C@H](O)[C@@H]2O)cc1I	-	-	-	>100 µM
Nc1nc(=O)n([C@@H]2C=C[C@H](CO)O2)cc1F	HepG2.2.15	-	-	20 µM
O=C(N/C(C(=O)N1CCCCC1)=C(/Cl)c1ccccc1)c1ccccc1	HepG2	-	-	2.9 µM
COC(=O)c1cc2c(OC)cccc2[nH]1	-	-	-	2.13 µg/mL
C/C(C=O)=C\CC[C@H](C)c1ccc(CO)cc1O	2.2.15	-	-	>61 µg/mL
COC(=O)[C@H](C)NP(=O)(OCC1C/C1=C/n1cnc2c(=O)[nH]c(N)nc21)Oc1ccccc1	2.2.15	-	-	2 µM
COC(=O)c1cc2c(OC)c(CC=C(C)C)c(N)cc2[nH]1	-	-	-	0.09 µg/mL
COC(=O)C1=C(C)NC(c2nccs2)=N[C@H]1c1ccc(F)cc1Cl	HepG2.2.15	-	-	0.06 µM
C[C@]1(CO)CO[C@H](n2cnc3c(=O)[nH]c(F)nc32)C1	-	-	-	>100 µM
COC(=O)C1=C(C)N(CC(=O)O)C(c2ccccn2)=NC1c1ccccc1Cl	HepG2.2.15	-	-	>100 µM
O=c1[nH]c(=O)n(COC(CO)CO)cc1Cl	B1	-	Mutant M204I	56 µg/mL
COC(=O)c1cc2c(OC)c(N)ccc2[nH]1	-	-	-	2.13 µg/mL
Nc1nc2c(ncn2C[C@H]2C[C@H]2[C@H](O)CO)c(=O)[nH]1	2.2.15	-	-	>10 µM
C[C@]1(CO)CO[C@@H](n2cnc3c(N)ncnc32)C1	-	-	-	>100 µM
COc1nc(N)nc2c1ncn2/C=C1/C[C@H]1CO	2.2.15	-	-	>10 µM
Cc1ccc([C@@H](C)CC[C@H](O)C(C)(C)O)c(O)c1	2.2.15	-	-	>61 µg/mL
Nc1ccn(C[C@H]2C[C@H]2CO)c(=O)n1	2.2.15	-	-	>10 µM
Nc1nc(N)c2ncn(C=C3CC3CO)c2n1	2.2.15	-	-	10 µM

Again, the opening 5 rows:

SMILES	cells	mutations	strain	result
COC(=O)c1cc(OC)c2c(OC)cc(N)cc2n1	-	-	-	0.15 µg/mL
Nc1ccn([C@H]2CS[C@@H](CO)O2)c(=O)n1	CEM	-	-	0.5 µM
COc1cc(N)cc2[nH]c(C(C)=O)cc12	-	-	-	0.98 µg/mL
Nc1nc2c(ncn2[C@H]2CO[C@@H](CO)O2)c(=O)[nH]1	AD38	-	Wild	30 µM
CC(C)=CCC[C@H](C)c1ccc(C)cc1O[C@@H]1OC(CO)[C@@H](O)C(O)[C@@H]1O	2.2.15	-	-	>61 µg/mL